Data on 2 compounds can be found in patent US20150065466A1, “NOVEL DXR INHIBITORS FOR ANTIMICROBIAL THERAPY” (priority 2012, published 2015).

Amino acid sequences for entries named in this document (tags omitted). Residues count along the entry.
UniProt P45568, whole entry: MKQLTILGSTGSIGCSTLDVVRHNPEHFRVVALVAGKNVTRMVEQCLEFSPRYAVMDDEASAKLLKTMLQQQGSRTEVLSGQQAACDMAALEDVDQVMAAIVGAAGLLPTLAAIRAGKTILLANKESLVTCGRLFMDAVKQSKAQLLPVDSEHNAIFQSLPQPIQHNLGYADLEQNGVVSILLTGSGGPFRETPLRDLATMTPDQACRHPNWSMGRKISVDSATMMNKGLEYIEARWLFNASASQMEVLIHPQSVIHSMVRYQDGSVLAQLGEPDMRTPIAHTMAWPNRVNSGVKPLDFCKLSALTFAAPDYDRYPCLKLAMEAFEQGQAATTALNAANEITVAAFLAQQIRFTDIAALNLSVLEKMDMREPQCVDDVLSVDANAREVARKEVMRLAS
UniProt S8ESX0, 187-632 limits assumed: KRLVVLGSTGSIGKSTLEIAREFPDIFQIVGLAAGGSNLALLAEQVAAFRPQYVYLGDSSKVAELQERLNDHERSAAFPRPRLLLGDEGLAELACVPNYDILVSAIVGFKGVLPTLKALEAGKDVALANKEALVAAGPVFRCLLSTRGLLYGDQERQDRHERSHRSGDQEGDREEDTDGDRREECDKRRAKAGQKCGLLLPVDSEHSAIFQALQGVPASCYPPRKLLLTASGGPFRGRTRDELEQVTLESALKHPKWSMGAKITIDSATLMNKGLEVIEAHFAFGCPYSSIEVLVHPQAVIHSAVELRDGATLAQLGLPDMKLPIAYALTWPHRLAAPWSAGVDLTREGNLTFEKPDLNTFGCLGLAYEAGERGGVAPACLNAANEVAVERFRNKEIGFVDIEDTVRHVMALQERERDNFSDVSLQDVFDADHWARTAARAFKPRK

In one assay the target is EcDXR (Escherichia coli, UniProt P45568). To be noted: read-out: Ki EcDXR; cited from earlier work.
For another assay, the target named is TgDXR (Toxoplasma gondii, UniProt S8ESX0). Put plainly: recombinant TgDXR enzyme inhibition.

Take `O=c1ccc(-c2ccccc2)cn1O`: the Ki (usually the equilibrium dissociation constant of an inhibitor or competing ligand from its target) at EcDXR was 700 nM.

With `O=P(O)(O)Cc1ccc(-c2ccccc2)cn1`, the “Ki against TgDXR, in words” value at TgDXR was “low μM range”.
